Pooled drug test results. Numbers come from NIAID ChemDB, via PubChem.

Common to all: tests in culture; organism: Candida albicans

MIC50, MIC90 and the like: level of inhibition, or share of isolates inhibited. Neighbouring rows are from separate reports. ECn: concentration that inhibits the pathogen or its effect by n%. Blank or dashed fields: not listed here.

| smiles | measure | read by | strain | result |
|---|---|---|---|---|
| Cc1c(O)cccc1C(=O)N[C@@H](CSc1ccccc1)[C@H](O)CN1C[C@H]2CCCC[C@H]2C[C@H]1C(=O)NC(C)(C)C | MIC |  | I10A | >64 µg/mL |
| c1ccc(CSc2ccccc2Cn2ccnc2)cc1 | MIC |  |  | 25 µg/mL |
| O=C1CSC(N2N=C(c3cccc([N+](=O)[O-])c3)CC2c2cc3ccccc3nc2Cl)=N1 | MIC100 |  | MTCC 227 | 500 µg/mL |
| NC[C@@H]1O[C@H](O[C@H]2[C@@H](O)[C@H](O[C@@H]3[C@@H](O)[C@H](N)C[C@H](N)[C@H]3O[C@H]3O[C@H](CN)[C@@H](O)[C@H](O)[C@H]3N)O[C@@H]2CO)[C@H](N)[C@@H](O)[C@@H]1O | EC50 |  |  | 1.1 µg/mL |
| CCCCCCCCCCCC1=NCCN1C(=S)c1ccc(O)cc1O | MIC |  | ATCC 10231 | 50 µg/mL |
| O=C1N=c2ccc(Br)cc2=C1c1sc(Nc2nnc(-c3ccc(Cl)cc3)o2)nc1O | MIC |  | ATCC 10231 | 16 µg/mL |
| Oc1ccc(/C=C/c2cc(O)cc(O)c2)cc1 | MIC |  |  | 20 µg/mL |
| C[C@@H](B1OC2CC3CC(C3(C)C)[C@@]2(C)O1)[C@@H](Cc1ccccc1)NC(=O)[C@@H](N)CCCCN | MIC |  |  | ≤500 µg/mL |
| O=C1CSC(N2N=C(c3ccc(Cl)cc3)CC2c2cc3ccccc3nc2Cl)=N1 | MIC100 |  | MTCC 227 | 500 µg/mL |
| Oc1ccc(C(=S)N2C=NC(Cl)C2Cl)c(O)c1 | MIC |  | 10 isolates | 50 µg/mL |
| Cc1cnc(Oc2ccc(Br)cc2)nc1Oc1ccc(Br)cc1 | EC50 |  |  | 22.8 µg/mL |
| CC1=CCC[C@H]2[C@](C)(CC3=C(O)C(N[C@H](C(=O)O)C(C)C)=CC(=O)C3=O)[C@@H](C)CC[C@]12C | MIC |  |  | 33 µg/mL |
| CC1(C)C2CC3OB(C[C@@H](Cc4ccccc4)NC(=O)[C@@H](N)CCCN=C(N)N)O[C@]3(C)C1C2 | MIC | agar |  | ≤500 µg/mL |
| Clc1ccc(C(c2ccccc2)N2CCN(CCn3cncn3)CC2)cc1 | MIC90 | agar |  | 32 µg/mL |
| O=[N+]([O-])c1ccc(SNc2ccc3c(c2)Sc2ccccc2O3)cc1 | MIC |  | C316 | 1.1 µg/mL |
| CC(C)(O)c1cn(-c2ccc(Cl)cc2)nn1 | MIC | broth dilution | URM 4388 | 128 µg/mL |
| NC(N)=NCCC[C@H](NC(=O)Cc1ccccc1)C(=O)NCCCCCCCCCCCCNC(=O)[C@H](CCCN=C(N)N)NC(=O)Cc1ccccc1 | MIC |  |  | 149 µM |
| COc1ccc(-c2oc3ccc(C)cc3c2C(=O)c2cc(O)cc(OC)c2)cc1 | EC80 | broth dilution |  | >200 µg/mL |
| COC(=O)c1cc(O)c(O)c2oc3cc(OC)cc(O)c3c(=O)c12 | MIC | broth dilution | ATCC 18804 | >62.5 µg/mL |
| CC(=O)OCC1C=C(c2ccc(Br)cc2)C(=O)O1 | EC50 |  | ATCC 90028 | <10 µg/mL |
| Nc1[nH]c(=O)ncc1F | MIC100 | broth dilution | ATCC 10239 | 7.8 µg/mL |
| COc1ccc(-c2oc3ccc(C)cc3c2C(=O)c2ccc(Cl)cc2)cc1 | EC80 | broth dilution |  | >200 µg/mL |
| CC(C)CCC[C@@H](C)[C@H]1CCC2C3C[C@@H](O)C4C[C@@H](O)CC[C@]4(C)C3CC[C@@]21C | MIC50 |  | CIP 1663-86 | >25 µg/mL |
| O=C(c1ccccc1)C(c1ccccc1)n1nnc2ccccc21 | MIC90 | agar |  | >256 µg/mL |
| NC(N)=NCCC[C@H](NC(=O)Cc1ccccc1)C(=O)NCCCCCCNC(=O)[C@H](CCCN=C(N)N)NC(=O)Cc1ccccc1 | MIC |  |  | >323 µM |
| CC(C)CCC[C@@H](C)[C@H]1CC[C@H]2[C@@H]3[C@@H](O)C=C4C[C@@H](O)CC[C@]4(C)[C@H]3CC[C@]12C | MIC50 |  | CIP 1663-86 | >50 µg/mL |
| Clc1ccc(C(c2ccccc2)n2cncn2)cc1 | MFC | broth dilution |  | 64 µg/mL |
| CC(C)CCC[C@@H](C)[C@H]1CCC2C3CC(=O)C4=CC(=O)CC[C@]4(C)C3CC[C@@]21C | MIC50 |  | CIP 1663-86 | 25 µg/mL |
| Clc1ccc(CSc2ccccc2Cn2ccnc2)cc1Cl | MIC |  |  | 12.5 µg/mL |
| Nc1ccc2c(c1)Sc1ccccc1O2 | MIC |  | C316 | >125 µg/mL |
| CCCCC/C=C/C=C/C(O)C/C=C/C=C/C(=O)OC1C(O)C(c2c(O)cc(O)cc2CO)OC(CO)C1OC1OC(C(O)COC(=O)/C=C/C=C\CCC(O)CC)C(O)C1O | MIC |  | TIMM1768 | 0.2 µg/mL |
| C[C@@H](B1OC2CC3CC(C3(C)C)[C@@]2(C)O1)[C@@H](Cc1ccccc1)NC(=O)[C@@H]1CCCN1 | MIC |  |  | ≤500 µg/mL |
| O=[N+]([O-])c1ccc(S(=O)(=O)Nc2ccc3c(c2)Sc2ccccc2O3)cc1Cl | MIC |  | C316 | 1 µg/mL |
| COc1ccc(C(=O)c2c(-c3ccc(OC)cc3)oc3ccc(C)cc23)cc1 | EC80 | broth dilution |  | >200 µg/mL |
| COc1ccc(Oc2ncc(C)c(Oc3ccc(OC)cc3)n2)cc1 | EC50 |  |  | 15.8 µg/mL |
| Cc1cc2c(c(O)c1C(=O)NCC(=O)O)-c1c(cc3c(c1O)C(=O)c1cc(OCC(=O)O)cc(O)c1C3=O)[C@H](O)[C@H]2O[C@@H]1O[C@H](C)[C@H](O)[C@H](O[C@@H]2OC[C@@H](O)[C@H](O)[C@H]2O)[C@H]1O | MIC |  | A9540 | 50 µg/mL |
| Oc1ccc(C(=S)N2C=NC(c3ccccc3)C2c2ccccc2)c(O)c1 | MIC |  | ATCC 10231 | 50 µg/mL |
| CC(C)CCC[C@@H](C)[C@H]1CCC2C3CC(=O)C4C[C@@H](O)CC[C@]4(C)C3CC[C@@]21C | MIC50 |  | CIP 1663-86 | >50 µg/mL |
| COc1ccc(-c2nnc(Nc3nc(O)c(C4=c5cc(OC(F)(F)F)ccc5=NC4=O)s3)o2)cc1 | MIC |  | ATCC 10231 | 16 µg/mL |
| Cc1cnc(Oc2ccccc2)nc1Oc1ccccc1 | EC50 |  |  | 21.6 µg/mL |
| CNC1C(C)OC(O[C@H]2c3cc(C)c(C(=O)NC(C)C(=O)O)c(OC)c3-c3c(cc4c(c3O)Cc3cc(OC)cc(O)c3C4=O)[C@@H]2O)C(O)C1OC1OCC(O)C(O)C1O | MIC |  | A9540 | >100 µg/mL |
| c1ccc(C(c2ccccc2)n2ccnc2)cc1 | MIC90 | agar |  | 1 µg/mL |
| CNC1C(C)OC(O[C@H]2c3cc(C)c(C(=O)N[C@@H](CO)C(=O)O)c(O)c3-c3c(cc4c(c3O)C(=O)c3cc(OC)cc(O)c3C4=O)[C@@H]2O)C(O)C1OC1OCC(O)C(O)C1O | MIC |  | A9540 | 12.5 µg/mL |
| CN[C@@H]1[C@H](O[C@@H]2OC[C@@H](O)[C@H](O)[C@H]2O)[C@@H](O)[C@H](O[C@H]2c3c(c(O)c(C(=O)N[C@H](C)C(=O)O)c(C)c3[N+](=O)[O-])-c3c(cc4c(c3O)C(=O)c3cc(OC)cc(O)c3C4=O)[C@@H]2O)O[C@@H]1C | MIC |  | A9540 | >100 µg/mL |
| O=C1CSC(N2N=C(c3ccccc3[N+](=O)[O-])CC2c2cc3ccccc3nc2Cl)=N1 | MIC100 |  | MTCC 227 | 250 µg/mL |
| COc1ccc(-c2nnc(/N=C3\NC(=O)/C(=C4/C(=O)N(C)c5ccccc54)S3)o2)cc1 | MIC |  | ATCC 10231 | 8 µg/mL |
| COc1ccc(C2=NN(C3=NC(=O)CS3)C(c3cc4ccccc4nc3Cl)C2)cc1 | MIC100 |  | MTCC 227 | 1000 µg/mL |
| C[C@@H](B1OC2CC3CC(C3(C)C)[C@@]2(C)O1)[C@@H](Cc1ccccc1)NC(=O)C(N)Cc1ccccc1 | MIC |  |  | ≤500 µg/mL |
| O=S(=O)(Nc1ccc2c(c1)Sc1ccccc1O2)c1ccc(-[n+]2c(-c3ccccc3)cc(-c3ccccc3)cc2-c2ccccc2)cc1 | MIC |  | C316 | 3 µg/mL |
| O=C1N=c2ccccc2=C1c1sc(Nc2nnc(-c3ccccc3)o2)nc1O | MIC |  | ATCC 10231 | 16 µg/mL |
| NC(N)=NCCC[C@H](NC(=O)Cc1ccccc1)C(=O)NCCCCCCCCCCNC(=O)[C@H](CCCN=C(N)N)NC(=O)Cc1ccccc1 | MIC |  |  | 312 µM |
| Cc1cnc(Oc2ccc([N+](=O)[O-])cc2)nc1Oc1ccc([N+](=O)[O-])cc1 | EC50 |  |  | 13.2 µg/mL |
| O=C1N=c2ccc(OC(F)(F)F)cc2=C1c1sc(Nc2nnc(-c3ccccc3)o2)nc1O | MIC |  | ATCC 10231 | 16 µg/mL |
| COc1cc2c(c(O)c1C)C(=O)c1cc3c(c(O)c1C2=O)-c1c(cc(C)c(C(=O)NC(C)C(=O)O)c1OC)[C@H](OC1OC(C)C(N(C)C)C(OC2OCC(O)C(O)C2O)C1O)[C@H]3O | MIC |  | A9540 | >100 µg/mL |
| C[C@H]1[C@H](O)[C@@H](C)/C=C/C=C/C=C/C=C/C=C/C=C/C=C/[C@H](O[C@@H]2O[C@H](C)[C@@H](O)[C@H](N)[C@@H]2O)C[C@@H]2O[C@](O)(C[C@@H](O)C[C@@H](O)CC[C@H](O)[C@@H](O)C[C@@H](O)CC(=O)O[C@H]1C)C[C@H](O)[C@H]2C(=O)O | MIC100 | broth dilution | ATCC 10231 | 0.5 µM |
| COc1ccc(-c2oc3ccc(C)cc3c2C(=O)c2ccc(O)c(I)c2)cc1 | EC80 | broth dilution |  | >200 µg/mL |

Repeating the first 6 entries:

smiles	measure	read by	strain	result
Cc1c(O)cccc1C(=O)N[C@@H](CSc1ccccc1)[C@H](O)CN1C[C@H]2CCCC[C@H]2C[C@H]1C(=O)NC(C)(C)C	MIC		I10A	>64 µg/mL
c1ccc(CSc2ccccc2Cn2ccnc2)cc1	MIC			25 µg/mL
O=C1CSC(N2N=C(c3cccc([N+](=O)[O-])c3)CC2c2cc3ccccc3nc2Cl)=N1	MIC100		MTCC 227	500 µg/mL
NC[C@@H]1O[C@H](O[C@H]2[C@@H](O)[C@H](O[C@@H]3[C@@H](O)[C@H](N)C[C@H](N)[C@H]3O[C@H]3O[C@H](CN)[C@@H](O)[C@H](O)[C@H]3N)O[C@@H]2CO)[C@H](N)[C@@H](O)[C@@H]1O	EC50			1.1 µg/mL
CCCCCCCCCCCC1=NCCN1C(=S)c1ccc(O)cc1O	MIC		ATCC 10231	50 µg/mL
O=C1N=c2ccc(Br)cc2=C1c1sc(Nc2nnc(-c3ccc(Cl)cc3)o2)nc1O	MIC		ATCC 10231	16 µg/mL